Pooled drug test results. Numbers come from NIAID ChemDB, via PubChem.

Shared fields: tests in culture; organism: HIV-1; read by: cytopathic effect; measure: inhibition

Conditions beyond the fields shown may differ between rows. Inhibition is in % at the dose shown (toxicity tests: loss of growth or viability). An empty or dashed field is not shown.

structure,cells,tested at,strain,conditions,result
C=C(C)[C@@H]1CC[C@]2(C(=O)O)CC[C@]3(C)C(CCC4[C@@]5(C)CC[C@H](OC(=O)CN(OC)[C@H]6O[C@H](CO)[C@@H](O)[C@H](OC)[C@H]6O)C(C)(C)C5CC[C@]43C)C12,-,10 µM,IIIB,-,23%
CC(C)(C)C(=O)Nc1ccn([C@H]2CC[C@@H](COC(=O)C(C)(C)C)O2)c(=O)n1,-,25 µM,-,-,0%
CC(=O)CCCCCCCCCCCC(=O)O,CEM,1 µg/mL,-,-,6%
COc1ccc(/C=N/N=C(\N)NO)c(OC)c1.Cc1ccc(S(=O)(=O)O)cc1,CEM,32 µg/mL,IIIB,-,39%
CCCCCCC(=O)CCCCCCC(=O)O,CEM,3 µg/mL,-,-,5%
Nc1ccn([C@H]2CC[C@@H](CO)O2)c(=O)n1,-,16 µM,-,-,99%
Cc1ccc(S(=O)(=O)O)cc1.N/C(=N\N=C\c1ccccc1)NO,CEM,10 µg/mL,IIIB,-,12%
CCCCCCC(=O)NCCCCCC(=O)O,CEM,10 µg/mL,-,-,4%
C=C(C)[C@@H]1CC[C@]2(C(=O)O)CC[C@]3(C)C(CCC4[C@@]5(C)CC[C@H](OC(=O)CN(OC)C6O[C@H](CO)[C@H](O)[C@H](O)[C@@H]6O)C(C)(C)C5CC[C@]43C)C12,-,10 µM,IIIB,-,5%
CC(C)(C)C(=O)OC[C@@H]1CC[C@H](n2ccc(N)nc2=O)O1,-,6.4 µM,-,-,88%
CC1(C)[C@@H](O[C@H]2O[C@H](C(=O)O)[C@@H](O)[C@H](O)[C@H]2O[C@@H]2O[C@H](C(=O)O)[C@@H](O)[C@H](O)[C@H]2O)CC[C@]2(C)[C@H]3C(=O)C=C4[C@@H]5C[C@@](C)(C(=O)O)CC[C@]5(C)CC[C@@]4(C)[C@]3(C)CC[C@@H]12,MOLT-4,1200 µM,IIIB,9 d,74.6%
C[C@]1(O)CN(Cc2ccccc2)CC[C@@H]1O,CEM + CEM-SS,100 µg/mL,BRU,-,6.2%
COc1ccc(/C=N/N=C(\N)NO)cc1O.Cc1ccc(S(=O)(=O)O)cc1,CEM,32 µg/mL,IIIB,-,62%
O[C@H]1CCNC[C@@H]1O,CEM + CEM-SS,10 µg/mL,BRU,-,82%
COc1cc(Br)c(/C=N/N=C(\N)NO)cc1OC.Cc1ccc(S(=O)(=O)O)cc1,CEM,10 µg/mL,IIIB,-,35%
C=C(C)[C@@H]1CC[C@]2(C(=O)O)CC[C@]3(C)C(CCC4[C@@]5(C)CC[C@H](OC(=O)CN(OC)C6O[C@@H](C)[C@@H](O)[C@@H](O)[C@@H]6O)C(C)(C)C5CC[C@]43C)C12,-,10 µM,IIIB,-,61%
COc1cc(/C=N/N=C(\N)NO)c([N+](=O)[O-])cc1OC,CEM,10 µg/mL,IIIB,-,3%
CCCCN1CC[C@H](O)[C@@H](O)C1,CEM + CEM-SS,10 µg/mL,BRU,-,15.3%
O=C1c2ccccc2C(=O)c2c1ccc(O)c2O,SupT1 + Sup-T1,50 µg/mL,IIIB,-,37%
C=C(C)[C@@H]1CC[C@]2(C(=O)O)CC[C@]3(C)C(CCC4[C@@]5(C)CC[C@H](OC(=O)CN(OC)[C@@H]6OC[C@@H](O)[C@H](O)[C@H]6O)C(C)(C)C5CC[C@]43C)C12,-,10 µM,IIIB,-,4%
O=C(O)CCC(CCC(=O)O)(CCC(=O)O)NC(=O)CCC(CCC(=O)NC(CCC(=O)O)(CCC(=O)O)CCC(=O)O)(CCC(=O)NC(CCC(=O)O)(CCC(=O)O)CCC(=O)O)NC(=O)CCCOC(=O)C1(C(=O)OCCCC(=O)NC(CCC(=O)NC(CCC(=O)O)(CCC(=O)O)CCC(=O)O)(CCC(=O)NC(CCC(=O)O)(CCC(=O)O)CCC(=O)O)CCC(=O)NC(CCC(=O)O)(CCC(=O)O)CCC(=O)O)C2c3cc4c5c6c3-c3c(cc7c8c3C6C3c6c-5c(cc5ccc9cc(c-8c3c9c65)C7)C4)C21,PBMC,2 µM,AZT/3TC-resistant (RT M184V T215Y),-,90%
C=C(C)[C@@H]1CC[C@]2(C(=O)O)CC[C@]3(C)C(CCC4[C@@]5(C)CC[C@H](OC(=O)CN(OC)C6OC[C@H](O)[C@H](O)[C@H]6O)C(C)(C)C5CC[C@]43C)C12,-,10 µM,IIIB,-,4%
CCCCCCCCCC(=O)NCCC(=O)O,CEM,1 µg/mL,-,-,4%
O[C@H]1CCN(Cc2ccccc2)C[C@@H]1O,CEM + CEM-SS,100 µg/mL,BRU,-,6.8%
C=C(C)[C@@H]1CC[C@]2(C(=O)O)CC[C@]3(C)C(CCC4[C@@]5(C)CC[C@H](OC(=O)CN(OC)[C@@H]6O[C@H](C(=O)O)[C@@H](O)[C@H](O)[C@H]6O)C(C)(C)C5CC[C@]43C)C12,-,10 µM,IIIB,-,9%
CCCCC(=O)NCCCCCCCC(=O)O,CEM,1 µg/mL,-,-,1%
O[C@H]1CN(Cc2ccccc2)CC[C@@]1(O)c1ccccc1,CEM + CEM-SS,100 µg/mL,BRU,-,42.3%
C=C(C)[C@@H]1CC[C@]2(C(=O)O)CC[C@]3(C)C(CCC4[C@@]5(C)CC[C@H](OC(=O)CN(OC)C6O[C@H](CO)[C@H](O)[C@H](O)[C@H]6O)C(C)(C)C5CC[C@]43C)C12,-,10 µM,IIIB,-,3%
COc1cc(/C=N/N=C(\N)NO)c(Cl)cc1O.Cc1ccc(S(=O)(=O)O)cc1,CEM,10 µg/mL,IIIB,-,0%
CCN1CC[C@H](O)[C@@H](O)C1,CEM + CEM-SS,10 µg/mL,BRU,-,19.1%

4 of the rows above, restated:

structure	cells	tested at	strain	conditions	result
CCCCCCC(=O)NCCCCCC(=O)O	CEM	10 µg/mL	-	-	4%
C=C(C)[C@@H]1CC[C@]2(C(=O)O)CC[C@]3(C)C(CCC4[C@@]5(C)CC[C@H](OC(=O)CN(OC)C6O[C@H](CO)[C@H](O)[C@H](O)[C@H]6O)C(C)(C)C5CC[C@]43C)C12	-	10 µM	IIIB	-	3%
C=C(C)[C@@H]1CC[C@]2(C(=O)O)CC[C@]3(C)C(CCC4[C@@]5(C)CC[C@H](OC(=O)CN(OC)[C@@H]6O[C@H](C(=O)O)[C@@H](O)[C@H](O)[C@H]6O)C(C)(C)C5CC[C@]43C)C12	-	10 µM	IIIB	-	9%
Cc1ccc(S(=O)(=O)O)cc1.N/C(=N\N=C\c1ccccc1)NO	CEM	10 µg/mL	IIIB	-	12%